Pooled drug test results. Numbers come from NIAID ChemDB, via PubChem.

Common to all: tests in culture; organism: HIV-1; read-out: inhibition

Percent inhibition refers to the dose given; in toxicity tests it is the harm to the cells. Lines come from different laboratories, so protocols vary. An empty or dashed field is not shown.

| compound | strain or isolate | read by | conditions | cell line | tested at | changes | result |
|---|---|---|---|---|---|---|---|
| O=C1N(CC2CCCCC2)[C@H](Cc2ccccc2)[C@H](O)[C@@H](O)[C@@H](Cc2ccccc2)N1CC1CCCCC1 | RF | hybridisation | - | MT-2 | 96 µM | - | <90% |
| Nc1nc(=O)n([C@@H]2C[C@H](O)[C@@H](CO)O2)cc1-c1ccccn1 | IIIB | RT activity | - | H9 | 10 µg/mL | - | 15% |
| C=C(C)[C@]12C[C@@H](COC(=O)c3ccccc3)[C@@]34O[C@]5(O[C@@H]1[C@@H]3[C@@H]1O[C@]1(CO)[C@@H](O)[C@@]1(O)[C@H]4[C@H]([C@H](C)[C@@H]1OC(=O)c1ccccc1)[C@H](C)CCCCCC[C@H]5O)O2 | - | - | - | MT-4 | 0.005 µM | - | 80% |
| C/C=C(\C)C(=O)O[C@@H]1[C@@H](OC(=O)/C(C)=C/C)[C@]2(C)[C@@H](C(C)=O)CC[C@@]23O[C@]32CC=C3C[C@@H](O[C@H]4C[C@@H](OC)C(O[C@@H]5OC(C)C(O[C@@H]6OC(CO)C(O[C@@H]7OC(CO)C(O)[C@H](O)C7O)[C@H](O)C6O)[C@H](OC)C5O)C(C)O4)CC[C@]3(C)[C@@H]12 | - | luciferase | pseudotyped | SupT1 | 30 µM | - | 20.9% |
| C[C@H](Cn1cnc2c(N)ncnc21)OCP(=O)(O)O | BaL | p24 / syncytia | - | Macrophage + Monocytes/macrophages | 0.5 µM | - | 98% |
| Nc1ccn([C@H]2CC[C@@H](CO)O2)c(=O)n1 | LAV-1 | syncytia | - | HT4 + HT4-6C | 0.0316 µM | - | 72% |
| COC(=O)[C@@H]1C2CCC(C[C@@H]1OC(=O)c1ccccc1)N2C | IIIB | p24 | - | SupT1 + Sup-T1 | 50 µg/mL | - | <0% |
| COc1ccc(Cc2nccc3cc(OC)c(OC)cc23)cc1OC | IIIB | syncytia / trypan blue | - | PBMC | 10 µg/mL | - | 45.6% |
| CN=C1CN=C(c2ccc[nH]2)c2cc(Cl)ccc2N1 | LAV-1 | syncytia | - | HT4 + HT4-6C | 0.316 µM | - | 43% |
| Nc1nc(=O)n([C@H]2C[C@H](O)[C@@H](CO)O2)cc1-c1ccoc1 | IIIB | RT activity | - | H9 | 10 µg/mL | - | 20% |
| COC1=C2[C@@H]3Cc4ccc(OC)c(O)c4[C@]2(CCN3)CC(OC(C)=O)C1OC(C)=O | IIIB | cytopathic effect / visual reading | - | MT-4 | 7.8 µg/mL | - | 100% |
| C/C=C(\C)C(=O)O[C@@H]1[C@@H](OC(=O)c2ccccc2)[C@@H]2[C@@]3(C)CC[C@H](O[C@H]4C[C@@H](OC)C(O[C@@H]5OC(C)C(O[C@@H]6OC(CO)C(O[C@@H]7OC(CO)C(O)[C@H](O)C7O)[C@H](O)C6O)[C@H](OC)C5O)C(C)O4)C[C@@H]3CC[C@@]2(O)[C@@]2(O)CC[C@H](C(C)=O)[C@@]12C | - | luciferase | pseudotyped | SupT1 | 30 µM | - | 31.36% |
| COc1ccc2cc([C@H](C)C(=O)O)ccc2c1 | LAV | - | - | MT-4 | 100 µg/mL | - | 0% |
| Cc1cn([C@H]2CC[C@@H](CO)O2)c(=O)[nH]c1=O | LAV-Bru | ELISA | - | CEM13 + CEM | 10 µM | - | 50% |
| O=C(O)P(=O)(O)O | IIIB | p24 / antigen | 4 d | H9 | 30 µM | - | 0% |
| CC(C)Nc1cccnc1N1CCN(C(=O)c2cc3ccccc3[nH]2)CC1 | Seropositive clinical isolate A | MTT | - | PBMC | 1 µM | - | 100% |
| Nc1c(S(=O)(=O)O)cc2c3c(cc(S(=O)(=O)O)cc13)C(=O)N(NC(=O)N/N=C/c1cccc(C=O)c1)C2=O | - | syncytia | - | MT-2 | 800 µM | - | 100% |
| CC(C)(C)NC(=O)[C@@H]1CN(Cc2cccnc2)CCN1C[C@@H](O)C[C@@H](Cc1ccccc1)C(=O)N[C@H]1c2ccccc2C[C@H]1O | - | β-galactosidase | - | MAGI | 5 µg/mL | - | 10% |
| Nc1ncnc2c1ncn2CCOCP(=O)(O)O | BaL | p24 / syncytia | - | Macrophage + Monocytes/macrophages | 0.05 µM | - | 77% |
| CN(Cc1cc(Br)cc(Br)c1N)C1CCCCC1 | LAV | - | - | MT-4 | 100 µg/mL | - | 0% |
| O=C1N(Cc2ccc(CO)cc2)[C@H](Cc2ccccc2)[C@H](O)[C@@H](O)[C@@H](Cc2ccccc2)N1Cc1ccc(CO)cc1 | Y clinical isolate | p24 | - | PBMC | 0.14 µM | - | 90% |
| Nc1nc(N)c2ncn([C@H]3CC[C@@H](CO)O3)c2n1 | IIIB | cytopathic effect / trypan blue | - | ATH8 | 200 µM | - | 100% |
| c1cc(CN2CCCNCCNCCCNCC2)ccc1CN1CCCNCCNCCCNCC1 | CM1 CLADE C R5 | p24 | - | PBMC | 0.1 µM | - | 8% |
| COCCN1C(=O)N(CCOC)[C@H](Cc2ccccc2)[C@H](O)[C@@H](O)[C@H]1Cc1ccccc1 | RF | hybridisation | - | MT-2 | 114 µM | - | <90% |
| COc1cc(O)c2c(=O)oc3cc(O)cc(C)c3c2c1 | NL4-3 | luciferase | pseudotyped | HEK293T | 60 µM | - | 70% |
| CCOC(CN1CCN(CC(C)C(=O)c2ccccc2)CC1)c1ccccc1 | LAV | - | - | MT-4 | 1 µg/mL | - | 0% |
| Nc1nc2c(ncn2[C@H]2CC[C@@H](CO)O2)c(=O)[nH]1 | IIIB | ELISA | - | MT-4 | 10 µM | - | 97% |
| Nc1nc(=O)n([C@H]2CS[C@@H](CO)O2)cc1F | - | cytopathic effect | - | MT-4 | 5.2 µM | - | 70% |
| CCCCCCCCCCCCCC(=O)OC[C@@H](COP(=O)(O)OC[C@@H]1CC[C@H](n2cc(C)c(=O)[nH]c2=O)O1)OC(=O)CCCCCCCCCCCCC | LAV-Bru | ELISA | - | CEM13 + CEM | 1 µM | - | 50% |
| Nc1cccc(CN2C(=O)N(Cc3cccc(N)c3)[C@H](Cc3ccccc3)[C@H](O)[C@@H](O)[C@H]2Cc2ccccc2)c1 | E (PR M46L V82V/I I84V/I) | virus yield | - | MT-2 | 0.912 µM | PR-M46L V82V+I I84V+I | 90% |
| CCOCCN1C(=O)N(CCOCC)[C@H](Cc2ccccc2)[C@H](O)[C@@H](O)[C@H]1Cc1ccccc1 | RF | hybridisation | - | MT-2 | 106 µM | - | <90% |
| COCCCCCCCCCCCC(=O)O | IIIB | cytopathic effect / XTT | - | CEM + CEM-SS | 20 µM | - | 32% |
| CC1=C(/C=C/C(C)=C/C=C/C(C)=C/C(=O)O)C(C)(C)CCC1 | HTLV-III | plaque count | - | MT-4 | 10 µg/mL | - | 84% |
| OC[C@@H]1[C@@H](O)[C@H](O)[C@@H](O)CN1CCCc1ccccc1 | IIIB | cell fusion | - | MOLT-4 | 40 µg/mL | - | 89% |
| [B-]P(=O)([O-])CC[C@H]1O[C@@H](n2cc(C)c(=O)[nH]c2=O)C[C@@H]1N=[N+]=[N-] | NL4.3 p24 antigen | β-galactosidase | - | MAGI | 400 µM | - | 0% |
| C/C=C(\C)C(=O)O[C@@H]1[C@@H](OC(C)=O)[C@H]2[C@@H](CC=C3C[C@@H](O[C@H]4C[C@@H](OC)[C@H](O[C@@H]5OC(C)[C@@H](O[C@@H]6OC(CO)[C@@H](O[C@@H]7OC(CO)[C@@H](O)[C@H](O)C7O)[C@H](O)C6O)[C@H](OC)C5O)C(C)O4)CC[C@@]32C)[C@@]2(O)CC[C@H](C(C)=O)[C@@]12C | - | luciferase | pseudotyped | SupT1 | 30 µM | - | 48.83% |
| O=C(O)CCCCCCCCCCCCl | IIIB | cytopathic effect / XTT | - | CEM + CEM-SS | 20 µM | - | 14.8% |
| CCCCCCCCCCCCCC(=O)OC[C@@H](COP(=O)(O)OC[C@@H]1CC[C@H](n2cnc3c(N)ncnc32)O1)OC(=O)CCCCCCCCCCCCC | IIIB | ELISA | - | MT-4 | 1 µM | - | 74% |
| CCCCCCc1ccsc1-c1cn([C@H]2C[C@H](O)[C@@H](CO)O2)c(=O)[nH]c1=O | IIIB | RT activity | - | H9 | 10 µg/mL | - | 35% |
| CCSCCCCCCCCCCC(=O)O | IIIB | cytopathic effect / XTT | - | CEM + CEM-SS | 6.3 µM | - | 11.2% |
| C/C=C(\C)C(=O)O[C@@H]1[C@@H](OC(=O)c2ccccc2)[C@]2(C)[C@@H](C(C)=O)CC[C@@]23O[C@]32CC=C3C[C@@H](O[C@H]4C[C@@H](OC)C(O[C@@H]5OC(C)C(O[C@@H]6OC(CO)C(O[C@@H]7OC(CO)C(O)[C@H](O)C7O)[C@H](O)C6O)[C@H](OC)C5O)C(C)O4)CC[C@]3(C)[C@@H]12 | - | luciferase | pseudotyped | SupT1 | 30 µM | - | 13.7% |
| Cc1cn([C@H]2C[C@H](N=[N+]=[N-])[C@@H](CO)O2)c(=O)[nH]c1=O | NL4-3 | p24 / RT activity | - | PBMC | 0.0137 µM | - | 90% |
| CC(C)CN1C(=O)N(CC(C)C)[C@H](Cc2ccccc2)[C@H](O)[C@@H](O)[C@H]1Cc1ccccc1 | RF | hybridisation | - | MT-2 | 100 µM | - | <90% |
| O=C(O)/C=C/c1ccc[c]([Sb](=[O])([OH])[OH])c1 | 92US727 R5 clinical isolate | β-galactosidase | - | MAGI | 10 µM | - | 55.5% |
| C/C=C(\C)C(=O)O[C@@H]1[C@@H](OC(C)=O)[C@H]2[C@@H](CC[C@H]3C[C@@H](O[C@H]4C[C@@H](OC)[C@H](O[C@@H]5OC(C)[C@@H](O[C@@H]6OC(CO)[C@@H](O[C@@H]7OC(CO)[C@@H](O)[C@H](O)C7O)[C@H](O)C6O)[C@H](OC)C5O)C(C)O4)CC[C@@]32C)[C@@]2(O)CC[C@H](C(C)=O)[C@@]12C | - | luciferase | pseudotyped | SupT1 | 30 µM | - | 28.35% |
| CN1C(=O)CN=C(c2ccccc2)c2cc(Cl)ccc21 | LAV | - | - | MT-4 | 100 µg/mL | - | 37% |
| C/C=C(\C)C(=O)O[C@@H]1[C@@H](OC(=O)/C(C)=C/C)[C@]2(C)[C@@H](C(C)=O)CC[C@]2(O)[C@]2(O)CC[C@H]3C[C@@H](O[C@H]4C[C@@H](OC)[C@H](O[C@@H]5OC(C)[C@@H](O[C@@H]6OC(CO)[C@@H](O[C@@H]7OC(CO)[C@@H](O)[C@H](O)C7O)[C@H](O)C6O)[C@H](OC)C5O)C(C)O4)CC[C@]3(C)[C@@H]12 | - | luciferase | pseudotyped | SupT1 | 30 µM | - | 39.2% |
| CN1C(=O)N(C)[C@H](Cc2ccccc2)[C@H](O)[C@@H](O)[C@H]1Cc1ccccc1 | RF | hybridisation | - | MT-2 | 141 µM | - | <90% |
| C/C=C(\C)C(=O)O[C@H]1[C@H]2[C@@H](CC=C3C[C@@H](O[C@H]4C[C@@H](OC)[C@H](O[C@@H]5OC(C)[C@@H](O[C@@H]6OC(CO)[C@@H](O[C@@H]7OC(CO)[C@@H](O)[C@H](O)C7O)[C@H](O)C6O)[C@H](OC)C5O)C(C)O4)CC[C@@]32C)[C@@]2(O)CC[C@H](C(C)=O)[C@@]2(C)[C@@H]1OC(=O)/C(C)=C/C | - | luciferase | pseudotyped | SupT1 | 30 µM | - | 37.81% |
| Cc1ccc(C(=O)O[C@H]2C[C@H](n3cc(-c4cccs4)c(N)nc3=O)O[C@@H]2CO)cc1 | IIIB | RT activity | - | H9 | 10 µg/mL | - | 10% |
| CCCCCCN1C(=O)N(CCCCCC)[C@H](Cc2ccccc2)[C@H](O)[C@@H](O)[C@H]1Cc1ccccc1 | RF | hybridisation | - | MT-2 | 102 µM | - | <90% |
| [N-]=[N+]=NCCCCCCCCCCCC(=O)O | IIIB | cytopathic effect / XTT | - | CEM + CEM-SS | 20 µM | - | 26.6% |
| CN[C@@H](CS)C(=O)O | LAV | - | - | MT-4 | 100 µg/mL | - | 0% |
| Nc1ccn([C@H]2CC[C@@H](CO)O2)c(=O)n1 | LAV-1 | virus yield | - | U-937 | 0.001 µM | - | >100% |